The source of these data is patent publication US20040102431A1, “Substituted amino-aza-cycloalkanes useful against malaria” (priority 2000, published 2004).

By UniProt entry, the sequences of proteins in these tests, tags left out. Residues count along the entry.
UniProt P46925, 125-453 limits assumed: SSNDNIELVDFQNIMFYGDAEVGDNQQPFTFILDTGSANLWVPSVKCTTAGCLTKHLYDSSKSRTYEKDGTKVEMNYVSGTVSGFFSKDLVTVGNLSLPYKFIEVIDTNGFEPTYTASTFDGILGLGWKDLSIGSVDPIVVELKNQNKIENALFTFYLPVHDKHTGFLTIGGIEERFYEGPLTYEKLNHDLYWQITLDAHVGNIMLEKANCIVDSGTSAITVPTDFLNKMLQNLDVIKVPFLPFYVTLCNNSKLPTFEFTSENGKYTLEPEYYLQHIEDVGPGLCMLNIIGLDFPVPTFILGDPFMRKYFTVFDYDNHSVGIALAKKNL

The experiment addresses plasmepsin II (Plasmodium falciparum, UniProt P46925). Description: fluorescence resonance energy transfer (FRET) assay for plasmepsin II. The experiment is classed as biochemical. The settings on record: read-out: IC50 (nM) on plasmepsin II, Additional Examples table, pH 5, 37° C., 40 min, substrate 1 μM.

Take `CCCCCc1ccc(C(=O)N(Cc2ccc(-c3ccccc3)cc2)C2CCN(CCc3ccccc3)CC2)cc1`: the IC50 came to 433 nM.
